PubChem BioAssay AID624099 – ICCB-Longwood | 2012

Assay: 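Knock-downs relieving repression by E2 of an HPV18 LCR luciferase reporter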 (primary screen)
System: human C33A cervical carcinoma cells (HPV-negative) stably expressing BPV1 E2 and an HPV18 LCR luciferase reporter
Reagents: siRNA pool against human genes, 40 nM
Time to read-out: 72 h
Read-out: 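HPV18 LCR reporter light per well, converted to plate-wise z-scores that exclude control wells, and averaged over triplicate plates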
Direction: mean z-score and z-score: higher = stronger reporter signal, weaker E2 silencing
Hit rule: 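Mean z ≥ 2 together with z ≥ 2 in two or more of the three replicates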
In all, the deposit lists about 21,000 reagents; shown is a part drawn at random. Over the whole deposit, 497 (2.4%) are marked active. 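Higher z means weaker E2 silencing; only reporter increases were scored, and knock-downs that hurt cell survival may mask genuine repressor factors.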 No sequences are given here.

ZKSCAN5: mean z-score = 0.85; z-score, replicate A = 0.63; z-score, replicate B = 1.06; z-score, replicate C = 0.88; call = inactive
OSM: mean z-score = -0.07; z-score, replicate A = -0.17; z-score, replicate B = -0.01; z-score, replicate C = -0.01; call = inactive
SARS2: mean z-score = 0.94; z-score, replicate A = 0.65; z-score, replicate B = 0.9; z-score, replicate C = 1.28; call = inactive
CXCL14: mean z-score = -0.95; z-score, replicate A = -1.07; z-score, replicate B = -1.11; z-score, replicate C = -0.67; call = inactive
MICA: mean z-score = -0.36; z-score, replicate A = -0.05; z-score, replicate B = -0.37; z-score, replicate C = -0.67; call = inactive
IER3IP1: mean z-score = -0.74; z-score, replicate A = -0.47; z-score, replicate B = -0.99; z-score, replicate C = -0.76; call = inactive
IGHM: mean z-score = 1.64; z-score, replicate A = 1.76; z-score, replicate B = 1.4; z-score, replicate C = 1.76; call = inactive
CLEC17A: mean z-score = -0.23; z-score, replicate A = -0.21; z-score, replicate B = -0.37; z-score, replicate C = -0.13; call = inactive
GNPTG: mean z-score = 0.72; z-score, replicate A = 1.1; z-score, replicate B = 0.37; z-score, replicate C = 0.68; call = inactive

Entries listed so far whose target name begins with I or i:
IER3IP1: mean z-score = -0.74; z-score, replicate A = -0.47; z-score, replicate B = -0.99; z-score, replicate C = -0.76; call = inactive
IGHM: mean z-score = 1.64; z-score, replicate A = 1.76; z-score, replicate B = 1.4; z-score, replicate C = 1.76; call = inactive

Next reagents follow.
LOC388163 (retired record): mean z-score = 0.5; z-score, replicate A = 0.21; z-score, replicate B = 0.53; z-score, replicate C = 0.76; call = inactive
COX16: mean z-score = -0.03; z-score, replicate A = -0.07; z-score, replicate B = -0.5; z-score, replicate C = 0.47; call = inactive
LINC01465: mean z-score = 0.18; z-score, replicate A = -0.06; z-score, replicate B = -0.04; z-score, replicate C = 0.63; call = inactive
SLC4A11: mean z-score = -0.33; z-score, replicate A = -0.28; z-score, replicate B = -0.13; z-score, replicate C = -0.58; call = inactive
COG8: mean z-score = -0.01; z-score, replicate A = -0.02; z-score, replicate B = 0.09; z-score, replicate C = -0.11; call = inactive
